Experimental data: US5164196A (priority 1990, dated 1992)

By UniProt entry, the sequences of proteins in these tests, tags left out. Where a name states a change or a piece, a line headed by the entry shows the natural chain unless it says otherwise.
UniProt P0CAS2: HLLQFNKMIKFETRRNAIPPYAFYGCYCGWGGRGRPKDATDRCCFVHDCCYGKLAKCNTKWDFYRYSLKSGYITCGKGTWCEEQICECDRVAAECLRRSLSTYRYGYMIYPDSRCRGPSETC

Target: crotoxin B (basic phospholipase A2, subunit B) from Crotalus durissus terrificus venom (Crotalus durissus terrificus, UniProt P0CAS2)
Experiment: Fluorescence spectroscopy of crotoxin B in the presence of phospholipid vesicles
Conditions: read-out: apparent dissociation constant; zwitterionic phospholipid vesicles; change in fluorescence intensity vs phospholipid concentration

Substance: phosphatidylcholine
- Kd: 1000 to 2000 µM
